In assay [1] the target is T1, Human immunodeficiency virus type 1 integrase (Human immunodeficiency virus 1, UniProt Q7ZJM1). The assay can be described thus: Inhibition of recombinant HIV-1 integrase 3'-processing activity using 32P 5' end-labeled linear 21'mer as substrate preincubated for 30 mins prior to substrate challenge by phosphorimaging analysis.
The target of assay [2] is T1, Human immunodeficiency virus type 1 integrase. The assay is described as follows: Inhibition of His6-tagged HIV-1 integrase assessed as decrease in integrase-Flag-LEDGF/p75 interaction preincubated with enzyme for 30 mins followed by addition of Flag-LEDGF/p75 for 1 hr by AlphaScreen assay.

1 compound from ChEMBL document CHEMBL3286361, “Design and discovery of flavonoid-based HIV-1 integrase inhibitors targeting both the active site and the interaction with LEDGF/p75” (Bioorg Med Chem, 2014) can be followed below.

For orientation: IC50 means the point on the concentration scale where inhibition reaches its midpoint. With `O=c1cc(-c2ccccc2)oc2cc(O)c(O)c(O)c12` [BAICALEIN], the IC50 stood at 7.5 µM in assay [1] and 2.7 µM in assay [2].
